Experimental data from US7811577B2 (priority 2004, dated 2010).
Where a sequence shows no end group, the ends are not given.

B1: NH2—C(Fm)(thioIZN17)3 (peptide)
peptide 1: CCCGGIKKEIEAIKKEQEAIKKKIEAIEKLLQLTVWGIKQLQARIL
peptide 2: GGGIKKEIEAIKKEQEAIKKKIEAIEKLLQLTVWGIKQLQARIL
B2: ac-C(Acm)(thioIZN17)3 (peptide)
peptide 1: B1 peptide 1
peptide 2: B1 peptide 2
B3: ac-C(Acm)(thioS17N17)3 (peptide)
peptide 1: CCCGGIEKKIEAIEKKIEAIEKLLQLTVWGIKQLQARIL
peptide 2: GGGIEKKIEAIEKKIEAIEKLLQLTVWGIKQLQARIL
modifications: cyclised or stapled

Assay: general procedure: Fmoc solid-phase peptide synthesis; Fmoc-Linker AM-Champion, 1% cross-linked (Biosearch Technologies), PEG-PS with modified Rink linker; HBTU/DIEA; HATU/DIEA for some residues or peptides
Conditions: for oxidative folding yield: oxidative folding step; for conjugation yield: conjugation step, overall yield of the trimerization reaction
[1] = several disulfide bridges, sequence written open
[2] = overall yield of the oxidation reaction

Molecule | oxidative folding yield [2] | conjugation yield | further results
(CCS10N17)3 (CCGGIEKKIEAIEKLLQLTVWGIKQLQARIL; disulfide-linked homotrimer) | – | – | oxidative folding yield: about 30%
CCGGIKKEIEAIKKEQEAIKKKIEAIEKLLQLTVWGIKQLQARIL | – | – | oxidative folding yield [1]: more than 80%
(CCIZN13)3 (CCGGIKKEIEAIKKEQEAIKKKIEAIEKLLQLTVWGIKQLQ; disulfide-linked homotrimer) | more than 80% | – | –
(CCIZN11IZ)3 (CCGGIKKEIEAIKKEQEAIKKKIEAIEKLLQLTVWGIKQIKKEIEAI; disulfide-linked homotrimer) | more than 70% | – | –
SGGCCGGIKKEIEAIKKEQEAIKKKIEAIEKLLQLTVWGIKQLQARIL | – | – | oxidative folding yield [1]: about 70%
ac-C(Acm)(thioE10N17)3 (peptide 1 CCCIEEKIEEIEELLQLTVWGIKQLQARIL; peptide 2 GGGIEEKIEEIEELLQLTVWGIKQLQARIL; cyclised or stapled) | – | more than 90% | –
(CCS17N17)3 (CCGGIEKKIEAIEKKIEAIEKLLQLTVWGIKQLQARIL; disulfide-linked homotrimer) | more than 70% | – | –
B1 | – | more than 90% | –
B2 | – | more than 90% | –
B3 | – | more than 90% | –
